Data as given in patent publication US4383114A, “Adenosine deaminase resistant antiviral purine arabinonucleosides” (priority 1981, dated 1983).

Test system: Herpes simplex virus, type 1, strain HS-123
Assay: chemotherapy experiment against lethal HSV-1 infections in mice
Details: for Mortality: No. Dead/Total No. of Mice / Mortality %: 21 days; for Mortality %: p << 0.0005 (Table 3)

## Nc1ncnc2c1ncn2[C@@H]1O[C@H](CO)[C@@H](O)[C@@H]1O [ara-A, reference compound]
Ara-A 125 mg/kg/day + virus
  Avg. Body Wt. on Day 0: 20 gm
  Avg. Body Wt. on Day 7: 23.4 gm
  Avg. Body Wt. on Day 14: 25.9 gm
  Avg. Body Wt. on Day 21: 28.2 gm
  Mortality: No. Dead/Total No. of Mice: 0/10
  Mortality %: 0%
Ara-A 250 mg/kg/day + virus
  Avg. Body Wt. on Day 0: 19.9 gm
  Avg. Body Wt. on Day 7: 20.3 gm
  Avg. Body Wt. on Day 14: 23.1 gm
  Avg. Body Wt. on Day 21: 25.9 gm
  Mortality: No. Dead/Total No. of Mice: 1/10
  Mortality %: 10%
Ara-A 250 mg/kg/day + virus, of 10 mice
  Death Pattern, deaths on day 7 post-virus inoculation: 1
Ara-A 250 mg/kg/day i.p. qd 7 days, HSV-1 infected, dying animals only
  Mean Survival Time: 7.0 days
